Laboratory results published in PMC5004841, “Development of a rapid phenotypic test for HCV protease inhibitors with potential use in clinical decisions” (Genetics and Molecular Biology, 2016).

Columns and labels:
HCV NS3-4A protease T54A = conditions: mutant T54A vs NS3 WT
Description: (§1) The HCV genotype 1b NS3-4A protease domain from the plasmid pFKI389 Luc-ubi-neo/NS3-3'/ET (kindly provided by Dr. Ralf Bartenschlager) was amplified with the antisense primer 5'-[…]-3'containing a BamHI enzyme restriction site and the sense primer 5'-[…]-3' containing a HindIII enzyme restriction site. This fragment was cloned into a pET21dhis-TEV bacterial expression vector (a pET21d plasmid, which was modified to codify a 6x histidine tag followed by a cleavage site recognized by the Tobacco Etch virus nTev protease at the protein N-terminus). The single chain NS3-4A protease contains the protease domain (182 amino acids) and a 20-aa portion of the cofactor NS4A ([Abrahim-Vieira et al., 2014]).
(§2) Protein expressions were carried out as described previously with some modifications to simplify techniques and to perform the protocol in a smaller inoculum volume ([Abrahim-Vieira et al., 2014]). Transformed BL21 (λDE3) cells were grown at 37°C in 500 mL of LB medium containing […] ampicilin until an OD600 of 0.6-0.8 was reached. Then, cultures were induced with 0.5 mM isopropyl-1-thio-β-D-galactopyranoside (IPTG) and incubated with shaking at 25 °C for 4 h. Cells expressing NS3-4A constructs were harvested by centrifugation and stored at −80 °C. All resuspension steps were performed at 4 °C. Frozen pellets were resuspended in 12.5 mL of buffer A (Tris-HCl 50 mM pH 7.5; NaCl 300 mM; 2 mM β-mercaptoethanol; 10% glycerol; 0.5% Triton X-100). After resuspension, lysates were treated with lysozyme (5 mg/mL) for 1 h with stirring, subjected to 20 cycles of 15 s of sonication and 30 s of resting. Lysates were cleared by centrifugation at 12.000 g for 30 min and the supernatant filtered with 0.22 μM filter units (Nalgene). After filtration, supernatants were applied in 2 mL of Ni-NTA Agarose (Life Technologies) previously washed with distilled water and equilibrated with buffer A. Agarose resin was washed three times with buffer A and recombinant proteins were eluted with buffer A with 125, 250 and 500 mM imidazol (buffer B). […] Fractions were pooled and dialyzed overnight against buffer A with SnakeSkin Dialysis Tubing 10K MWCO (Thermo Scientific). Purified NS3-4A constructs were quantified with Micro BCA Protein Assay Kit (Thermo Scientific).
(§3) All enzyme inhibition assays were performed in nonbinding black surface 96-well plates (Corning).

[1] = test system: HCV NS3-4A protease T54S + V170I; conditions: mutant T54S + V170I vs NS3 WT
Description: as §1, §2, §3

[2] = test system: HCV NS3-4A protease V158I; conditions: mutant V158I vs NS3 WT
Description: as §1, §2, §3

[3] = test system: HCV NS3-4A protease V170I; conditions: mutant V170I vs NS3 WT
Description: as §1, §2, §3

HCV NS3-4A protease V36M = conditions: mutant V36M vs NS3 WT
Description: as §1, §2, §3

HCV NS3 T54A = conditions: ref Sarrazin et al., 2007; cited from earlier work
HCV NS3 V36M = conditions: cited from earlier work

## CCC[C@H](NC(=O)[C@@H]1[C@H]2CCC[C@H]2CN1C(=O)[C@@H](NC(=O)[C@@H](NC(=O)c1cnccn1)C1CCCCC1)C(C)(C)C)C(=O)C(=O)NC1CC1 [Telaprevir]
HCV NS3-4A protease T54A
  fold change (mutant IC50 median/WT IC50 median): 9.6 fold
[1]
  fold change (mutant IC50 median/WT IC50 median): 2.7 fold
[2]
  fold change (mutant IC50 median/WT IC50 median): 0.3 fold
[3]
  fold change (mutant IC50 median/WT IC50 median): 1.6 fold
HCV NS3-4A protease V36M
  fold change (mutant IC50 median/WT IC50 median): 1.2 fold
HCV NS3 T54A
  fold change: 12 fold
HCV NS3 V36M; ref Jiang et al., 2013, Zhou et al., 2008
  fold change: 5.4 fold
HCV NS3 V36M; ref Sarrazin et al., 2007
  fold change: 3 fold

Read-outs that look alike come from different tables or passages of the source.
